Anti-infective test results gathered from many reports (values: NIAID ChemDB through PubChem).

Common to all: whole-cell or culture tests; agent: Candida albicans; measure: MIC100

Conditions beyond the fields shown may differ between rows. Blank or dashed fields: not listed here. A number after MIC or MFC names an inhibition level or a share of isolates.

{"smiles": "CCC(C)Oc1ccc(C(=O)Nc2ccc(-c3nc4ccccc4s3)cc2)cc1", "strain or isolate": "ATCC 10231", "read by": "broth dilution", "result": "25 µg/mL"}
{"smiles": "C[n+]1ccn(COCCCCCCOCn2cc[n+](C)c2)c1", "strain or isolate": "ATCC 90028", "read by": "agar diffusion", "result": "1634 µM"}
{"smiles": "CC(=O)Nc1ccc(OCC(=O)N2N=C(c3nc4ccccc4[nH]3)CC2c2ccccc2F)cc1", "strain or isolate": "MTCC 227", "result": "50 µg/mL"}
{"smiles": "C[C@H]1[C@H](O)[C@@H](C)/C=C/C=C/C=C/C=C/C=C/C=C/C=C/[C@H](O[C@@H]2O[C@H](C)[C@@H](O)[C@H](N)[C@@H]2O)C[C@@H]2O[C@](O)(C[C@@H](O)C[C@@H](O)CC[C@H](O)[C@@H](O)C[C@@H](O)CC(=O)O[C@H]1C)C[C@H](O)[C@H]2C(=O)O", "strain or isolate": "Clinical isolate", "read by": "broth dilution", "result": "<0.3 µg/mL"}
{"smiles": "COc1ccc(C2=NN(C3=NC(=O)CS3)C(c3cc4ccccc4nc3Cl)C2)cc1", "strain or isolate": "MTCC 227", "result": "1000 µg/mL"}
{"smiles": "CC(=O)Nc1ccc(OCC(=O)N2N=C(c3nc4ccccc4[nH]3)CC2c2ccccc2Cl)cc1", "strain or isolate": "MTCC 227", "result": "1001 µg/mL"}
{"smiles": "O=C(Cc1ccc(Br)cc1)Nc1ccc(Cc2nc3ccccc3s2)cc1", "strain or isolate": "ATCC 10231", "read by": "broth dilution", "result": "25 µg/mL"}
{"smiles": "Cn1c(=O)ccc2c3sc(N4CCN(c5ccccc5F)CC4)nc3ccc21", "strain or isolate": "MTCC 183", "result": "50 µg/mL"}
{"smiles": "Cc1ccc(-c2nc3ccccc3c(=O)n2-c2ccc(C(=O)NN3C(=O)/C(=C/c4ccccc4Br)SC3c3ccc(F)cc3)cc2)cc1", "strain or isolate": "MTCC 227", "result": "1000 µg/mL"}
{"smiles": "COc1ccc(-c2n[nH]c(COc3ncnc4ccccc34)n2)cc1OC", "strain or isolate": "MTCC 227", "result": "12.5 µg/mL"}
{"smiles": "C[C@H]1[C@H](O)[C@@H](C)/C=C/C=C/C=C/C=C/C=C/C=C/C=C/[C@H](O[C@@H]2O[C@H](C)[C@@H](O)[C@H](N)[C@@H]2O)C[C@@H]2O[C@](O)(C[C@@H](O)C[C@@H](O)CC[C@H](O)[C@@H](O)C[C@@H](O)CC(=O)O[C@H]1C)C[C@H](O)[C@H]2C(=O)O", "strain or isolate": "ATCC 10231", "read by": "broth dilution", "result": "0.5 µM"}
{"smiles": "CCCCCCCCCCCCCCn1cc[n+](COCCCCCOC[n+]2ccn(CCCCCCCCCCCCCC)c2)c1", "strain or isolate": "ATCC 90028", "read by": "agar diffusion", "result": "27 µM"}
{"smiles": "O=C1CSC(N2N=C(c3ccc(O)cc3)CC2c2cc3ccccc3nc2Cl)=N1", "strain or isolate": "MTCC 227", "result": "1000 µg/mL"}
{"smiles": "Cc1ccc(-c2nc3ccccc3c(=O)n2-c2ccc(C(=O)NN3C(=O)/C(=C/c4ccccc4O)SC3c3ccc(F)cc3)cc2)cc1", "strain or isolate": "MTCC 227", "result": "1000 µg/mL"}
{"smiles": "Cc1nc(OCc2nc(-c3cccs3)n[nH]2)c2ccccc2n1", "strain or isolate": "MTCC 227", "result": "6.25 µg/mL"}
{"smiles": "O=c1ccc2c(ccc3nc(N4CCN(c5cccc(C(F)(F)F)c5)CC4)sc32)o1", "strain or isolate": "MTCC 183", "result": "50 µg/mL"}
{"smiles": "Cc1ccc(-c2nc3ccccc3c(=O)n2-c2ccc(C(=O)N/N=C\\c3ccc(F)cc3)cc2)cc1", "strain or isolate": "MTCC 227", "result": "250 µg/mL"}
{"smiles": "FC(F)(F)c1nc(OCc2nc(-c3ccccc3)n[nH]2)c2ccccc2n1", "strain or isolate": "MTCC 227", "result": "12.5 µg/mL"}
{"smiles": "COc1cc(/C=C2\\SC(c3ccc(F)cc3)N(NC(=O)c3ccc(-n4c(-c5ccc(C)cc5)nc5ccccc5c4=O)cc3)C2=O)cc(OC)c1OC", "strain or isolate": "MTCC 227", "result": "1000 µg/mL"}
{"smiles": "CC(=O)Nc1ccc(OCC(=O)N2N=C(c3nc4ccccc4[nH]3)CC2c2ccccc2)cc1", "strain or isolate": "MTT 227", "result": "500 µg/mL"}
{"smiles": "O=C(Cc1ccccc1)Nc1ccc(Cc2nc3ccccc3s2)cc1", "strain or isolate": "ATCC 10231", "read by": "broth dilution", "result": "25 µg/mL"}
{"smiles": "Cc1ccc(-c2c3c(N)c4c(nc3nc3c2c(C)nn3-c2ccccc2)CCCC4)cc1", "strain or isolate": "CCC 130", "read by": "broth dilution / absorbance", "result": "31.2 µg/mL"}
{"smiles": "CC(=O)Nc1ccc(OCC(=O)N2N=C(c3nc4ccccc4[nH]3)CC2c2cccc(F)c2)cc1", "strain or isolate": "MTCC 227", "result": "250 µg/mL"}
{"smiles": "CN1CCN(c2nc3ccc4oc(=O)ccc4c3s2)CC1", "strain or isolate": "MTCC 183", "result": "250 µg/mL"}
{"smiles": "C[C@H]1[C@H](O)[C@@H](C)/C=C/C=C/C=C/C=C/C=C/C=C/C=C/[C@H](O[C@@H]2O[C@H](C)[C@@H](O)[C@H](N)[C@@H]2O)C[C@@H]2O[C@](O)(C[C@@H](O)C[C@@H](O)CC[C@H](O)[C@@H](O)C[C@@H](O)CC(=O)O[C@H]1C)C[C@H](O)[C@H]2C(=O)O", "strain or isolate": "CCC 127", "read by": "broth dilution / absorbance", "result": "0.78 µg/mL"}
{"smiles": "CCCn1cc[n+](COCCCCCCOC[n+]2ccn(CCC)c2)c1", "strain or isolate": "ATCC 90028", "read by": "agar diffusion", "result": "712 µM"}
{"smiles": "COc1cc(-c2n[nH]c(COc3nc(C)nc4ccccc34)n2)cc(OC)c1OC", "strain or isolate": "MTCC 227", "result": "6.25 µg/mL"}
{"smiles": "Cc1ccc(-c2c3c(N)c4c(nc3nc3c2c(C)nn3-c2ccccc2)CCCCC4)cc1", "strain or isolate": "CCC 128", "read by": "broth dilution / absorbance", "result": "125 µg/mL"}
{"smiles": "FC(F)(F)c1nc(OCc2nc(-c3ccc(Br)cc3)n[nH]2)c2ccccc2n1", "strain or isolate": "MTCC 227", "result": "6.25 µg/mL"}
{"smiles": "Cc1ccc(-c2nc3ccccc3c(=O)n2-c2ccc(C(=O)NN3C(=O)/C(=C/c4ccccc4Cl)SC3c3ccc(F)cc3)cc2)cc1", "strain or isolate": "MTCC 227", "result": "100 µg/mL"}
{"smiles": "Cc1ccc(-c2c3c(N)c4c(nc3nc3c2c(C)nn3-c2ccccc2)CCC4)cc1", "strain or isolate": "CCC 130", "read by": "broth dilution / absorbance", "result": "125 µg/mL"}
{"smiles": "CC(=O)Nc1ccc(OCC(=O)N2N=C(c3nc4ccccc4[nH]3)CC2c2ccc(F)cc2)cc1", "strain or isolate": "MTCC 227", "result": "501 µg/mL"}
{"smiles": "O=C1CSC(N2N=C(c3ccccc3Cl)CC2c2cc3ccccc3nc2Cl)=N1", "strain or isolate": "MTCC 227", "result": "500 µg/mL"}
{"smiles": "CC(=O)Nc1ccc(OCC(=O)N2N=C(c3nc4ccccc4[nH]3)CC2c2cccc([N+](=O)[O-])c2)cc1", "strain or isolate": "MTCC 227", "result": "250 µg/mL"}
{"smiles": "O=C1CSC(N2N=C(c3ccccc3)CC2c2cc3ccccc3nc2Cl)=N1", "strain or isolate": "MTCC 227", "result": "1000 µg/mL"}
{"smiles": "Cc1ccc(-c2nc3ccccc3c(=O)n2-c2ccc(C(=O)NN3C(=O)/C(=C/c4cccc([N+](=O)[O-])c4)SC3c3ccc(F)cc3)cc2)cc1", "strain or isolate": "MTCC 227", "result": "250 µg/mL"}
{"smiles": "O=C(Cc1ccc(Cl)cc1)Nc1ccc(Cc2nc3ccccc3s2)cc1", "strain or isolate": "ATCC 10231", "read by": "broth dilution", "result": "25 µg/mL"}
{"smiles": "Cc1ccc(-c2nc3ccccc3c(=O)n2-c2ccc(C(=O)NN3C(=O)/C(=C/c4c(Cl)cccc4Cl)SC3c3ccc(F)cc3)cc2)cc1", "strain or isolate": "MTCC 227", "result": "500 µg/mL"}
{"smiles": "COc1ccc(N2CCN(c3nc4ccc5c(ccc(=O)n5C)c4s3)CC2)cc1", "strain or isolate": "MTCC 183", "result": "25 µg/mL"}
{"smiles": "COc1ccc(-c2n[nH]c(COc3nc(C(F)(F)F)nc4ccccc34)n2)cc1", "strain or isolate": "MTCC 227", "result": "12.5 µg/mL"}
{"smiles": "Cc1ccc(-c2nc3ccccc3c(=O)n2-c2ccc(C(=O)NN3C(=O)/C(=C/c4ccc(Br)cc4)SC3c3ccc(F)cc3)cc2)cc1", "strain or isolate": "MTCC 227", "result": "1000 µg/mL"}
{"smiles": "CCc1ccc(C(=O)Nc2ccc(Cc3nc4ccccc4s3)cc2)cc1", "strain or isolate": "ATCC 10231", "read by": "broth dilution", "result": "25 µg/mL"}
{"smiles": "CSCC[C@H]1NC(=O)[C@H]2CCCN2C1=O", "strain or isolate": "MTCC 277", "read by": "broth dilution", "result": "64 µg/mL"}
{"smiles": "Cc1nc(OCc2nc(-c3ccc(F)cc3)n[nH]2)c2ccccc2n1", "strain or isolate": "MTCC 277", "result": "6.25 µg/mL"}
{"smiles": "COc1ccc(CCC(=O)Nc2ccc(-c3nc4ccccc4s3)cc2)cc1", "strain or isolate": "ATCC 10231", "read by": "broth dilution", "result": "25 µg/mL"}
{"smiles": "CCCCCCCCCCCn1cc[n+](COCCCCCCOC[n+]2ccn(CCCCCCCCCCC)c2)c1", "strain or isolate": "ATCC 90028", "read by": "agar diffusion", "result": "8 µM"}
{"smiles": "O=C1N[C@H](Cc2ccccc2)C(=O)N2CCC[C@H]12", "strain or isolate": "MTCC 277", "read by": "broth dilution", "result": "128 µg/mL"}
{"smiles": "CCCCCCn1cc[n+](COCCCCCCOC[n+]2ccn(CCCCCC)c2)c1", "strain or isolate": "ATCC 90028", "read by": "agar diffusion", "result": "38 µM"}
{"smiles": "CC(=O)Nc1ccc(OCC(=O)N2N=C(c3nc4ccccc4[nH]3)CC2c2cccc(O)c2)cc1", "strain or isolate": "MTCC 227", "result": "1000 µg/mL"}
{"smiles": "CCCCCn1cc[n+](COCCCCCOC[n+]2ccn(CCCCC)c2)c1", "strain or isolate": "ATCC 90028", "read by": "agar diffusion", "result": "168 µM"}
{"smiles": "c1csc(-c2n[nH]c(COc3ncnc4ccccc34)n2)c1", "strain or isolate": "MTCC 227", "result": "6.25 µg/mL"}
{"smiles": "Cn1c(=O)ccc2c3sc(N4CCN(c5ccccn5)CC4)nc3ccc21", "strain or isolate": "MTCC 183", "result": "200 µg/mL"}
{"smiles": "CCCCCCCCn1cc[n+](COCCCCOC[n+]2ccn(CCCCCCCC)c2)c1", "strain or isolate": "ATCC 90028", "read by": "agar diffusion", "result": "9 µM"}

For reference, 3 entries again:

smiles,strain or isolate,read by,result
O=C(Cc1ccc(Br)cc1)Nc1ccc(Cc2nc3ccccc3s2)cc1,ATCC 10231,broth dilution,25 µg/mL
Cc1ccc(-c2nc3ccccc3c(=O)n2-c2ccc(C(=O)NN3C(=O)/C(=C/c4c(Cl)cccc4Cl)SC3c3ccc(F)cc3)cc2)cc1,MTCC 227,,500 µg/mL
CN1CCN(c2nc3ccc4oc(=O)ccc4c3s2)CC1,MTCC 183,,250 µg/mL